Mtb cholesterol medium: 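Phenotypic screen: M. tuberculosis growth, cholesterol and DPPC medium, 4 days; the read-out is not stated. Concentration: 500 µM. Higher reads as more growth inhibition (inferred: compounds with an IC50 in retests scored well above the rest). Of about 18,000 compounds tested this way, about 900 (5%) reached 50% or more in at least one test.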
Mtb glucose medium: 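Phenotypic screen: M. tuberculosis growth, glucose 7H9 medium, 3 days; the read-out is not stated. Tested at 500 µM. Direction is inferred from retests: higher values go with more growth inhibition. About 18,000 compounds were tested under these conditions; 7.9% (about 1,400) showed 50% or more at least once.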

Each number is a percent effect as filed.
How 0% and 100% were set is not recorded. Most values in the screen are low, and negative values occur.
This is part of a subset picked to be rich in strong results.
A dash means the value is not listed here; it may have been measured.

For CC(C)NC(=O)Cn1nnc(-c2cccs2)n1 the result was Mtb cholesterol medium: 6.858%; Mtb glucose medium: 4.799%.
For O=C(Nc1cccc(-n2cccn2)c1)N1CCSCC1 the result was Mtb cholesterol medium: 55.09%; Mtb glucose medium: 66.88%.
For N#Cc1cc(CN2CCCC3(C2)OCCO3)ccc1F the result was Mtb glucose medium: 2.191%.
For c1ccc2oc(CN3CCNCC3)cc2c1 the result was Mtb cholesterol medium: 25.44%.
For COC(=O)C(C)(O)Cn1ccccc1=O (centres undefined) the result was Mtb cholesterol medium: -10.17%.
For C=C(C)COc1ccc(C(=O)NCc2ncc[nH]2)cc1 the result was Mtb cholesterol medium: 24.05%; Mtb glucose medium: 44.88%.
For CCCOC(=O)C(C)NC(=O)c1cccs1 (centres undefined) the result was Mtb cholesterol medium: 68.36%; Mtb glucose medium: 66.7%.
For CNc1ncccc1F the result was Mtb cholesterol medium: -5.014%; Mtb glucose medium: -4.463%.
For CN(c1ccccc1C#N)S(C)(=O)=O the result was Mtb cholesterol medium: 19.55%.
For CNS(=O)(=O)c1cc(C(=O)Nc2cc(C)ns2)c(C)o1 the result was Mtb cholesterol medium: 24.74%.
For Cc1ccccc1N1C(=O)C=CC1=O the result was Mtb cholesterol medium: 115.8%; Mtb glucose medium: 105%.
For N#Cc1ccc(OCC(O)CN2CCC(O)CC2)cc1 (centres undefined) the result was Mtb glucose medium: 3.434%.
For CNC(=O)N1CCN(c2ccc(Cl)cn2)CC1 the result was Mtb cholesterol medium: -18.01%; Mtb glucose medium: -11.47%.
For CC(=O)c1ccc(NC(=O)CCc2cccs2)nc1 the result was Mtb glucose medium: -8.027%.
For COc1cc(CCNC(=O)C2CCCN2)ccc1F (centres undefined) the result was Mtb cholesterol medium: -15.48%.
For COc1ccnc(N2CCN(c3ccccn3)CC2)n1 the result was Mtb cholesterol medium: -1.867%; Mtb glucose medium: 6.751%.
For N#Cc1cccnc1N1CCOC(c2nccs2)C1 (centres undefined) the result was Mtb cholesterol medium: 36.53%; Mtb glucose medium: 66.81%.
For COc1cccc(CN2CCC(N(C)C(C)=O)CC2)c1 the result was Mtb cholesterol medium: 8.731%; Mtb glucose medium: 4.534%.
For CCS(=O)(=O)N1CCC(C(=O)NCCCN(C)C)CC1 the result was Mtb glucose medium: 3.705%.
For CN(Cc1ccccc1)C(=O)CN the result was Mtb cholesterol medium: 11.05%; Mtb glucose medium: 26.1%.
For CCc1nc(C)c(C(=O)N2CCOCC(O)C2)o1 (centres undefined) the result was Mtb cholesterol medium: 6.156%.
For O=S(=O)(N1CCCCCC1)N1CCNCC1 the result was Mtb cholesterol medium: -0.8557%.
For Cn1c(CO)nnc1SCC=Cc1ccccc1 the result was Mtb cholesterol medium: 56.7%; Mtb glucose medium: 75.58%.
For O=C(COCC(F)(F)F)NCc1cn2ccccc2n1 the result was Mtb glucose medium: 54.79%.
For CN(C)C(=O)c1ccc(CSc2nncs2)cc1 the result was Mtb cholesterol medium: 36.34%.
For COc1cc(Br)ccc1CCCNC(=O)C(C)O (centres undefined) the result was Mtb cholesterol medium: 30.61%.
For O=C(Nc1ccn(-c2ccccc2)n1)C1CCCO1 (centres undefined) the result was Mtb glucose medium: 33.83%.

The last 2 entries again:

compound,Mtb cholesterol medium,Mtb glucose medium
COc1cc(Br)ccc1CCCNC(=O)C(C)O (centres undefined),30.61,-
O=C(Nc1ccn(-c2ccccc2)n1)C1CCCO1 (centres undefined),-,33.83

Source: ChEMBL document CHEMBL3988442, “University of Dundee, Small-Polar-MMV Screening Library” (2021).